Measured values reported in paper PMC6948721.

System: O=C(O)C=CC=C(O)C(=O)O
Assay: purified protein
Conditions: 10 mM Na2HPO4 pH 7.3, 22 °C

| Substance | Km | kcat | kcat/Km |
| --- | --- | --- | --- |
| fused 4-OT (fused 4-oxalocrotonate tautomerase) (Burkholderia lata; R105A) | 213 ± 18 µM | 313 ± 15 s⁻¹ | 1.47e+06 M⁻¹ s⁻¹ |
| fused 4-OT (fused 4-oxalocrotonate tautomerase) (Burkholderia lata; P2A) | 221 ± 11 µM | 3.4 ± 0.1 s⁻¹ | 15400 M⁻¹ s⁻¹ |
